Experimental data from patent publication US20060127324A1, “Chewable oral compositions containing an anti-microbial agent and methods of formulating the compositions to have acceptable germ kill properties and taste” (Cadbury Adams USA LLC, priority 2004, published 2006).

Test: Maximum acceptable taste concentration (ATC), population sampling with human subjects
Settings: mint lozenge having a weight of 1.5 grams

SMILES | Maximum Acceptable Taste Concentration (ATC)
CC1CCC(C(C)C)C(O)C1 (centres unmarked) [Menthol] | 12,000 ppm
Cc1ccc(C(C)C)c(O)c1 [Thymol] | 100 ppm
